The values below are quoted from earlier work in article PMC5572697, “A first-in-human study of the novel HIV-fusion inhibitor C34-PEG4-Chol” (Scientific Reports, 2017).

For the series, the system named is patients. Particulars: enfuvirtide, pivotal Phase 3 studies; cited from earlier work.

On to enfuvirtide, for which the “Frequency of mild/moderate ISRs: Erythema / Redness” value was 90.8, the “Frequency of mild/moderate ISRs: Induration / Swelling” value is on record as 94.4, the “Frequency of mild/moderate ISRs: Nodules/cysts” value is 81.6 and the “Frequency of mild/moderate ISRs: Pain” value is 93.1. The “Frequency of mild/moderate ISRs: Tenderness” value is 89.8.
